{"source": "PubChem BioAssay AID1259414 (Drosophila RNAi Screening Center, 2018)", "assay": "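Fly genes that alter Wolbachia amount inside host cells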 (primary screen)", "cell system": "Drosophila JW18 cells infected with Wolbachia", "reagent": "long dsRNA against Drosophila genes, 0.25 µg dsRNA per well of a 384-well plate", "time to read-out": "5 days", "challenge": "cells persistently infected with Wolbachia before knock-down; no added drug", "measured": "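Imaged fluorescence in situ signal for Wolbachia 23S rRNA per DAPI-counted host cell, given as a robust z-score within each plate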", "scale": "Wolbachia per cell robust z: higher = more Wolbachia per host cell than the plate typical", "call rule": "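Hit when robust z is 1.5 or more, or -1.5 or less, in at least two of three replicates; excludes dsRNAs with several or no targets, genes not expressed in JW18 and well A1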", "note": "The deposit covers about 24,000 reagents; below is an unselected part of those with a known target gene and a result. In the full data, about 1,210 (5%) were called active. 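Inactive calls also include excluded dsRNAs with several or no targets, genes unexpressed in JW18, and well A1, regardless of score.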 Unmarked entries are inactive. A plus sign joins genes that one reagent is predicted to hit."}
{"target":"snoRNA:Psi18S-1275 + RpS29","DRSC id":"DRSC16433","Wolbachia per cell robust z, rep 1":1.06,"Wolbachia per cell robust z, rep 2":1.85,"Wolbachia per cell robust z, rep 3":2.97}
{"target":"CG34456","DRSC id":"DRSC41283","Wolbachia per cell robust z, rep 1":0.427,"Wolbachia per cell robust z, rep 2":0.473,"Wolbachia per cell robust z, rep 3":0.828}
{"target":"CG33107","DRSC id":"DRSC21898","Wolbachia per cell robust z, rep 1":-0.713,"Wolbachia per cell robust z, rep 2":-0.278,"Wolbachia per cell robust z, rep 3":-1.54}
{"target":"CG13949","DRSC id":"DRSC00367","Wolbachia per cell robust z, rep 1":0.817,"Wolbachia per cell robust z, rep 2":1.5,"Wolbachia per cell robust z, rep 3":-0.315}
{"target":"CG13949","DRSC id":"DRSC25702","Wolbachia per cell robust z, rep 1":-0.195,"Wolbachia per cell robust z, rep 2":0.242,"Wolbachia per cell robust z, rep 3":0.712}
{"target":"Usp5","DRSC id":"DRSC08244","Wolbachia per cell robust z, rep 1":-0.39,"Wolbachia per cell robust z, rep 2":1.11,"Wolbachia per cell robust z, rep 3":-1.86}
{"target":"Usp5","DRSC id":"DRSC28531","Wolbachia per cell robust z, rep 1":-0.246,"Wolbachia per cell robust z, rep 2":-1.02,"Wolbachia per cell robust z, rep 3":0.394}
{"target":"Mkp3","DRSC id":"DRSC10084","Wolbachia per cell robust z, rep 1":0.893,"Wolbachia per cell robust z, rep 2":0.5,"Wolbachia per cell robust z, rep 3":0.589}
{"target":"Mkp3","DRSC id":"DRSC10085","Wolbachia per cell robust z, rep 1":0.117,"Wolbachia per cell robust z, rep 2":-0.821,"Wolbachia per cell robust z, rep 3":-6.83}
{"target":"p38b","DRSC id":"DRSC03586","Wolbachia per cell robust z, rep 1":0.3,"Wolbachia per cell robust z, rep 2":0.00808,"Wolbachia per cell robust z, rep 3":0.268}
{"target":"Tm2","DRSC id":"DRSC16887","Wolbachia per cell robust z, rep 1":-0.822,"Wolbachia per cell robust z, rep 2":0.835,"Wolbachia per cell robust z, rep 3":1.15}
{"target":"Tm2","DRSC id":"DRSC26884","Wolbachia per cell robust z, rep 1":-1.21,"Wolbachia per cell robust z, rep 2":-0.637,"Wolbachia per cell robust z, rep 3":-1.94}
